Pooled drug test results. Numbers come from NIAID ChemDB, via PubChem.

Shared fields: toxicity to cultured cells; endpoint: CC50

CCn is the concentration with n% toxicity to the cells. An empty or dashed field is not shown. Neighbouring rows are from separate reports.

C[C@@]1(O)[C@H](O)[C@@H](CO)O[C@H]1n1cnc2c(N)ncnc21 ; method: MTS ; cells: HB110A ; result: >100 µM
O=C(O)c1c(-c2ccc(O)cc2)nc(NCc2nc3ccccc3[nH]2)[nH]c1=O ; method: MTT ; cells: Huh7 ; result: 987 µM
N#Cc1c(N2CCOCC2)nsc1-c1ccccc1 ; cells: L929 ; result: 1 µg/mL
O=c1cc(-c2ccc(Oc3c(O)cc4oc(-c5ccc(O)cc5)cc(=O)c4c3O)cc2)oc2cc(O)cc(O)c12 ; method: visual reading ; cells: MDCK ; result: 1.4 µg/mL
C/C(=N\OCc1ccc(F)cc1)c1c(C)cc(=O)n(O)c1O ; method: MTS ; cells: HepG2-NTCO-12 ; setting: 3 d ; result: >100 µM
N#Cc1c(-c2ccccc2)nc(SCc2nc3ccccc3[nH]2)[nH]c1=O ; method: MTT ; cells: Huh7 ; result: 245 µM
Cc1[nH]c2ccccc2c1CC(=O)NC(Cc1ccccc1)C(=O)N(C)c1ccccc1 ; method: MTT ; cells: U-87 ; result: 75 µM
Cc1nnc(C(=O)NC(C)(C)c2nc(C(=O)NCc3ccc(F)cc3)c(O)c(=O)n2C)o1 ; method: XTT ; cells: TZM-bl ; result: >20 µM
COc1ccc(-c2noc(C3=CC4(CCN(CC(=O)O)CC4)c4ccccc43)n2)cc1 ; method: resazurin ; cells: A549 ; result: >100 µM
CC(C)OC(=O)[C@H](C)N[P@](=O)(OC[C@H]1O[C@@](C#N)(c2ccc3c(N)ncnn23)[C@](C)(O)[C@@H]1OC(=O)C(C)C)Oc1ccccc1 ; method: ATP ; cells: Huh7 ; result: 29 µM
COC(=O)[C@H](C)NP(=O)(OC[C@H]1C/C1=C/n1cnc2c(=O)[nH]c(N)nc21)Oc1ccccc1 ; cells: H-1 ; result: >50 µM
N#Cc1c(-c2ccc(O)cc2)nc(SCc2nc3ccccc3[nH]2)[nH]c1=O ; method: MTT ; cells: Huh7 ; result: 265 µM
C[C@@H]1[C@H](O)[C@@H](C)/C=C/C=C/CC/C=C/C=C/C=C/C=C/C(O[C@H]2O[C@H](C)[C@@H](O)[C@H](N)[C@@H]2O)CC2O[C@](O)(CC(O)C(O)CCC(O)CC(O)CC(O)CC(=O)O[C@H]1C)CC(O)C2C(=O)O ; method: MTT / tetrazolium ; cells: Mouse neuroblastoma CCL131 ; result: 15.62 µg/mL
Nc1ccn([C@@H]2CO[C@H](CO)S2)c(=O)n1 ; cells: P3HR-1 ; result: 30 µM
O=C(O)c1c(-c2ccc(Cl)cc2)nc(SCc2nc3ccccc3[nH]2)[nH]c1=O ; method: MTT ; cells: Huh7 ; result: 523 µM
N#CCCn1c2ccccc2c2c3c(c4c5ccccc5[nH]c4c21)C(=O)NC3 ; cells: Akata ; result: 0.61 µM
Nc1ccn([C@@H]2CS[C@H](CO)O2)c(=O)n1 ; cells: P3HR-1 ; result: 10 µM
CC(C)C[C@H](O)C(=O)NC1CC2CCC1(C)C2(C)C ; method: MTT ; cells: HEK293T ; result: 111.8 µM
N#Cc1c(-c2ccc(Cl)cc2)nc(SCc2nc3ccccc3[nH]2)[nH]c1=O ; method: MTT ; cells: Huh7 ; result: 453 µM
COC(=O)[C@H](C)NP(=O)(OC[C@H]1C/C1=C/n1cnc2c(OC)nc(N)nc21)Oc1ccccc1 ; cells: MEF ; result: 126 µM
COC(=O)c1c(SC)nsc1-c1ccccc1 ; cells: L929 ; result: 100 µg/mL
O=C(O)c1c(-c2ccco2)nc(NCc2nc3ccccc3[nH]2)[nH]c1=O ; method: MTT ; cells: Huh7 ; result: 964 µM
CC1(C)C2CCC1(C)C(NC(=O)[C@@H](O)c1ccccc1)C2 ; method: MTT ; cells: HEK293T ; result: 105.2 µM
Cc1noc(C2=CC3(CCN(CC4CCCO4)CC3)c3ccccc32)n1 ; method: resazurin ; cells: A549 ; result: >200 µM
C[C@@]1(O)[C@H](O)[C@@H](CO)O[C@H]1n1cnc2c(N)ncnc21 ; method: ATP ; cells: Lunet-CD81 ; result: >50 µM
CC(C)(C)c1ccc(CN2CCC3(CC2)C(=O)N(CC2CC2)c2ccccc23)cc1 ; method: resazurin ; cells: A549 ; result: 33 µM
Nc1ncnc2c1ncn2CCOCP(=O)(O)O ; cells: CrFK ; result: 252 µM
O=C1N(CC2CC2)c2ccccc2C12CCN(Cc1cccnc1)CC2 ; method: resazurin ; cells: A549 ; result: >50 µM
Nc1nc2c(ncn2/C=C2/CC2(CO)CO)c(=O)[nH]1 ; cells: HeLaP4 ; result: 0.061 µM
N#Cc1c(-c2ccccc2Cl)nc(SCc2nc3ccccc3[nH]2)[nH]c1=O ; method: MTT ; cells: Huh7 ; result: 312 µM
COC(=O)[C@H](C)NP(=O)(OC[C@H]1C/C1=C\n1cnc2c(=O)[nH]c(N)nc21)Oc1ccccc1 ; cells: H-1 ; result: >50 µM
N#Cc1c(N2CCCCC2)nsc1-c1ccccc1 ; cells: HEP-2 ; result: 25 µg/mL
O=C(O)c1cc(O)cc(O)c1N=Nc1ccc(/C=C/c2ccc(N=Nc3c(O)cc(O)cc3C(=O)O)cc2S(=O)(=O)O)c(S(=O)(=O)O)c1 ; cells: AA5 ; result: 112 µg/mL
COc1ccc(-c2cc(=O)c3c(OC)cc(OC)c([C@H]4C(=O)c5c(OC)cc(OC)cc5O[C@@H]4c4ccc(OC)cc4)c3o2)cc1 ; method: visual reading ; cells: MA-104 ; result: ~30 µg/mL
Nc1ccn([C@@H]2CO[C@H](CO)O2)c(=O)n1 ; cells: P3HR-1 ; result: 30 µM
ClCc1nc2ccccc2[nH]1 ; method: MTT ; cells: Huh7 ; result: 137 µM
COc1ccc(CN2C(=O)C3(CCN(CC4CC4)CC3)c3ccccc32)cc1 ; method: resazurin ; cells: A549 ; result: >50 µM
Nc1ncnc2c1ncn2[C@@H]1C=C[C@@H](O)[C@H]1O ; cells: PRK ; result: 9 µg/mL
O=C1Nc2ccccc2C12CCN(Cc1ccccc1)CC2 ; method: resazurin ; cells: A549 ; result: >50 µM
O=c1[nH]c(=S)[nH]c(O)c1/C=C1\C=CC(c2cc(C(F)(F)F)ccc2Cl)=N1 ; method: XTT ; cells: TZM-bl ; result: >20 µM
CC[C@H](C)[C@H](O)C(=O)NC1CC2CCC1(C)C2(C)C ; method: MTT ; cells: HEK293T ; result: 106.6 µM
O=C(O)c1ccc(C2=N/C(=C/c3c(O)n(Cc4ccccc4)c(=S)[nH]c3=O)C=C2)cc1O ; method: XTT ; cells: TZM-bl ; result: >20 µM
CC(C)Nc1nc2cc(Cl)c(Cl)cc2n1[C@H]1O[C@@H](CO)[C@H](O)[C@@H]1O ; cells: Akata ; result: 93 µM
COC(=O)[C@H](C)NP(=O)(OC[C@H]1C/C1=C/n1cnc2c(N)nc(N)nc21)Oc1ccccc1 ; cells: MEF ; result: 211 µM
N#CCSc1nsc(-c2ccccc2)c1C#N ; cells: HEP-2 ; result: 10 µg/mL
Nc1ncnc2c1ncn2CCOCP(=O)(O)O ; cells: Duck hepatocytes ; result: 40 µM

Repeating the final 2 entries:

structure | method | cells | setting | result
N#CCSc1nsc(-c2ccccc2)c1C#N |  | HEP-2 |  | 10 µg/mL
Nc1ncnc2c1ncn2CCOCP(=O)(O)O |  | Duck hepatocytes |  | 40 µM